Measured values from several laboratories, pooled; numbers as filed in NIAID ChemDB.

All rows: host cell toxicity; cells: HeLa; measure: CC50

Neighbouring rows are from separate reports. Blank or dashed fields: not listed here. CCn is the concentration with n% toxicity to the cells.

{"smiles": "CC(C)(C)C1CN(C(=O)c2ccccc2)CCN1C(=O)C(=O)c1c[nH]c2cccc(F)c12", "read by": "XTT", "result": "105 µM"}
{"smiles": "Cc1ccc(C(=O)CCCCOc2ccc(C(=O)NCCO)cc2)o1", "result": ">305 µM"}
{"smiles": "CCOC(=O)[C@@]1(C)CC[C@]2(C)CC[C@]3(C)C(=CC(=O)[C@@H]4[C@@]5(C)CC/C(=N\\OCc6ccc(Cl)cc6)C(C)(C)[C@@H]5CC[C@]43C)[C@@H]2C1", "read by": "MTT", "result": "56.12 µM"}
{"smiles": "CCOC(=O)c1ccc(OCCCCCc2ccc(C)s2)cc1", "result": "301 µM"}
{"smiles": "COc1cnc(-c2ccco2)c2[nH]cc(C(=O)C(=O)N3CCN(C(=O)c4ccccc4)CC3)c12", "read by": "trypan blue", "result": ">100 µM"}
{"smiles": "Nc1nc(OC[C@H]2CC[C@@H](CO)O2)c2[nH]cnc2n1", "result": ">250 µM"}
{"smiles": "COc1cccc2[nH]cc(C(=O)C(=O)N3CCN(C(=O)c4ccccc4)C[C@@H]3C)c12", "read by": "XTT", "result": ">300 µM"}
{"smiles": "Nc1cc(OCC2O[C@H](COCc3ccccc3)[C@@H](OCc3ccccc3)[C@H]2OCc2ccccc2)nc(N)n1", "result": "22 µM"}
{"smiles": "CCOC(=O)[C@@]1(C)CC[C@]2(C)CC[C@]3(C)C(=CC(=O)[C@@H]4[C@@]5(C)CC/C(=N\\OCc6c(C)noc6C)C(C)(C)[C@@H]5CC[C@]43C)[C@@H]2C1", "read by": "MTT", "result": "12.27 µM"}
{"smiles": "COc1ccc(-c2cc(=O)c3c(O)cc(O)cc3o2)cc1", "result": "88 µg/mL"}
{"smiles": "CC(C)(C)C1CN(C(=O)C(=O)c2c[nH]c3cccc(F)c23)CCN1C(=O)c1ccccc1", "read by": "XTT", "result": "127 µM"}
{"smiles": "O=C(NC1CC1)c1c(O)c2cccnc2n(O)c1=O", "result": "<100 µM"}
{"smiles": "CCOC(=O)[C@@]1(C)CC[C@]2(C)CC[C@]3(C)C(=CC(=O)[C@@H]4[C@@]5(C)CC/C(=N\\OCc6ccc(F)c(F)c6)C(C)(C)[C@@H]5CC[C@]43C)[C@@H]2C1", "read by": "MTT", "result": "23.73 µM"}
{"smiles": "Nc1nc(OC[C@H]2CC[C@@H](COCc3ccccc3)O2)c2[nH]cnc2n1", "result": "203 µM"}
{"smiles": "COc1ncc(OC)c2c(C(=O)C(=O)N3CCN(C(=O)c4ccccc4)CC3)c[nH]c12", "read by": "trypan blue", "result": ">100 µM"}
{"smiles": "COc1cc(OC[C@H]2CC[C@@H](CO)O2)ncn1", "result": "≥250 µM"}
{"smiles": "CCOC(=O)[C@@]1(C)CC[C@]2(C)CC[C@]3(C)C(=CC(=O)[C@@H]4[C@@]5(C)CC/C(=N\\OCc6cc(C)nn6C)C(C)(C)[C@@H]5CC[C@]43C)[C@@H]2C1", "read by": "MTT", "result": "14.51 µM"}
{"smiles": "CC(CCC=C(CO)CO)C1CC[C@@]2(C)[C@@H]3CC=C4[C@@H](CCC(O)C4(C)C)[C@]3(C)C(O)C[C@]12C", "read by": "MTT", "result": "24.8 µM"}
{"smiles": "Cc1ccc(C(=O)CCCCCCOc2ccc(C3=N[C@@H](C)CO3)cc2)s1", "result": "16 µM"}
{"smiles": "Cc1cc(C(=O)CCCCOc2ccc(C3=NCCO3)cc2)c(C)[nH]1", "result": "205 µM"}
{"smiles": "Cc1ccc(C(=O)CCCCCCOc2ccc(C3=NCC(C)O3)cc2)s1", "result": ">260 µM"}
{"smiles": "CC(=O)OC(C)(C)CCC(=O)[C@](C)(O)[C@H]1[C@H](O)C[C@@]2(C)[C@@H]3CC=C4[C@@H](C[C@H](O)[C@@H](O)C4(C)C)[C@]3(C)C(=O)C[C@]12C", "read by": "MTT", "result": "8.7 µM"}
{"smiles": "Cc1cc(CCCCCCCOc2ccc(C3=NCCO3)cc2)on1", "result": "37 µM"}
{"smiles": "CCOC(=O)[C@@]1(C)CC[C@]2(C)CC[C@]3(C)C(=CC(=O)[C@@H]4[C@@]5(C)CC/C(=N\\OCc6ccsc6)C(C)(C)[C@@H]5CC[C@]43C)[C@@H]2C1", "read by": "MTT", "result": "24.85 µM"}
{"smiles": "CN1CCN(c2cc(=O)n(O)c3ncccc23)CC1=O", "result": "<100 µM"}
{"smiles": "Cc1ccc(C(=O)CCCCCCOc2ccc(C3=NCCO3)cc2Cl)s1", "result": ">246 µM"}
{"smiles": "CCC1CN(C(=O)c2ccccc2)CCN1C(=O)C(=O)c1c[nH]c2cccc(F)c12", "read by": "XTT", "result": "157 µM"}
{"smiles": "O=C(CCCCOc1ccc(C2=NCCO2)cc1)c1cc[nH]c1", "result": ">320 µM"}
{"smiles": "CCOC(=O)c1c(-c2cccc(-c3ccc(CN)cc3)c2)c2cc(-c3ccccc3OC)cnc2n(O)c1=O", "result": "<100 µM"}
{"smiles": "CS(=O)(=O)c1ccc(Cc2ccc(Br)cc2)nc1", "result": ">10 µg/mL"}
{"smiles": "CSc1noc(-c2ccc(OCCOc3ccc(C)cc3)cc2)c1C#N", "result": ">25 µM"}
{"smiles": "COc1cnc(-n2ccc(CO)n2)c2[nH]cc(C(=O)C(=O)N3CCN(C(=O)c4ccccc4)[C@H](C)C3)c12", "read by": "trypan blue", "result": ">100 µM"}
{"smiles": "CCOC(=O)c1c(-c2ccc(CCc3ccncc3)cc2)c2cccnc2n(O)c1=O", "result": "<100 µM"}
{"smiles": "CC(C)C1CN(C(=O)c2ccccc2)CCN1C(=O)C(=O)c1c[nH]c2cccc(F)c12", "read by": "XTT", "result": "90 µM"}
{"smiles": "Cc1csc(C(=O)CCCCOc2ccc(C(=O)O)cc2)c1", "result": ">314 µM"}
{"smiles": "COc1cnc(-c2ncon2)c2[nH]cc(C(=O)C(=O)N3CCN(C(=O)c4ccccc4)[C@H](C)C3)c12", "read by": "trypan blue", "result": ">100 µM"}
{"smiles": "CSc1noc(-c2ccc(OCCCOc3ccccc3)cc2)c1C#N", "result": "20 µM"}
{"smiles": "CC1CN(C(=O)c2ccccc2)C(C)CN1C(=O)C(=O)c1c[nH]c2cccc(F)c12", "read by": "XTT", "result": "102 µM"}
{"smiles": "Nc1nccc(OC[C@H]2CC[C@@H](CO)O2)n1", "result": ">250 µM"}
{"smiles": "CS(=O)c1ccc(Cc2ccc(S(C)(=O)=O)cn2)cc1", "result": ">10 µg/mL"}
{"smiles": "CNC(=O)c1ccc(-c2ncc(OC)c3c(C(=O)C(=O)N4CCN(C(=O)c5ccccc5)CC4)c[nH]c23)o1", "read by": "trypan blue", "result": ">100 µM"}
{"smiles": "COc1cccc2[nH]cc(C(=O)C(=O)N3CCN(C(=O)c4ccccc4)C[C@H]3C)c12", "read by": "XTT", "result": ">300 µM"}
{"smiles": "COc1ccc(-c2oc3cc(OC)cc(O)c3c(=O)c2OC)cc1", "result": "107 µg/mL"}
{"smiles": "CC(C)S(=O)(=O)c1ccc(Cc2ccc(Cl)c(Cl)c2)nc1", "result": "10 µg/mL"}
{"smiles": "CSc1noc(-c2ccc(OCCc3ccccc3)cc2)c1C#N", "result": ">20 µM"}
{"smiles": "COc1cnc(-n2cc(C)cn2)c2[nH]cc(C(=O)C(=O)N3CCN(C(=O)c4ccccc4)CC3)c12", "read by": "trypan blue", "result": ">100 µM"}
{"smiles": "CC1CN(C(=O)c2ccccc2)CC(C)N1C(=O)C(=O)c1c[nH]c2cccc(F)c12", "read by": "XTT", "result": "206 µM"}
{"smiles": "O=C1N[C@H]2CCCCC2Nc2c1c(=O)n(O)c1ncccc21", "result": "<100 µM"}
{"smiles": "O=C(C(=O)N1CCN(C(=O)c2ccccc2)CC1)c1c[nH]c2c(-n3cccn3)ccnc12", "read by": "trypan blue", "result": ">100 µM"}
{"smiles": "Cc1ccc(C(=O)CCCCCCOc2ccc(C3=NC(C)(C)CO3)cc2)s1", "result": "16 µM"}
{"smiles": "COc1cnc(C(N)=O)c2[nH]cc(C(=O)C(=O)N3CCN(C(=O)c4ccccc4)[C@H](C)C3)c12", "read by": "trypan blue", "result": ">100 µM"}
{"smiles": "CCOC(=O)[C@@]1(C)CC[C@]2(C)CC[C@]3(C)C(=CC(=O)[C@@H]4[C@@]5(C)CC/C(=N\\OCc6cccc(Br)c6)C(C)(C)[C@@H]5CC[C@]43C)[C@@H]2C1", "read by": "MTT", "result": ">100 µM"}
{"smiles": "OC[C@@H]1CC[C@H](COc2ncnc3nc[nH]c23)O1", "result": ">250 µM"}
{"smiles": "CS(=O)(=O)c1ccc(Cc2ccc(Cl)cc2)nc1", "result": ">10 µg/mL"}
{"smiles": "CCCCCCCCCCCC=O", "read by": "trypan blue", "result": "190 µg/mL"}
{"smiles": "Nc1nc(Cl)cc(OC[C@H]2CC[C@@H](COCc3ccccc3)O2)n1", "result": "179 µM"}

Repeating the final 6 entries:

smiles | read by | result
COc1cnc(C(N)=O)c2[nH]cc(C(=O)C(=O)N3CCN(C(=O)c4ccccc4)[C@H](C)C3)c12 | trypan blue | >100 µM
CCOC(=O)[C@@]1(C)CC[C@]2(C)CC[C@]3(C)C(=CC(=O)[C@@H]4[C@@]5(C)CC/C(=N\OCc6cccc(Br)c6)C(C)(C)[C@@H]5CC[C@]43C)[C@@H]2C1 | MTT | >100 µM
OC[C@@H]1CC[C@H](COc2ncnc3nc[nH]c23)O1 |  | >250 µM
CS(=O)(=O)c1ccc(Cc2ccc(Cl)cc2)nc1 |  | >10 µg/mL
CCCCCCCCCCCC=O | trypan blue | 190 µg/mL
Nc1nc(Cl)cc(OC[C@H]2CC[C@@H](COCc3ccccc3)O2)n1 |  | 179 µM